From publication PMC4706170 come the findings set out here.

The assay deals with BG505 SOSIP.664 P313W (HIV-1 strain BG505). Kind of assay: SPR. (In general: Surface plasmon resonance follows binding to a sensor surface in real time, without labels.)

As to “soluble CD4 (from UniProt P01730) (receptor)”, the stoichiometry N (CD4 per trimer) amounted to 3.
